Experimental data from PMC9871955, “High-throughput screening of SARS-CoV-2 main and papain-like protease inhibitors” (Protein & Cell, 2022).

Molecular target: SARS-CoV-2 PL^pro (Severe acute respiratory syndrome coronavirus 2, UniProt P0DTD1)
Assay: SARS-CoV-2 PL^pro enzymatic inhibition assay (substrate Z-RLRGG-AMC)
Type: biochemical
[1] = Table S6, S/KM = 4, read-out: IC50 (μM) at S/KM 4
[2] = Table S2, PL^pro inhibitors, 40 nmol/L enzyme, 50 µmol/L substrate, read-out: IC50
[3] = Table S3, representative dual inhibitors, read-out: IC50 for PL^pro
[4] = read-out: IC50 (μM) at S/KM 1/4

Compound	IC50 (Table S6, S/KM = 2, read-out: IC50 (μM) at S/KM 2) [µM]	IC50 [1] [µM]	IC50 (read-out: IC50 (μM) at S/KM 1) [µM]	IC50 (read-out: IC50 (μM) at S/KM 1/2) [µM]	IC50 [2] [µM]	IC50 [3] [µM]	IC50 [4] [µM]	IC50 (read-out: IC50 / inhibitory activity toward PL^pro) [µM]
CCC(C(=O)NCc1ccco1)n1c(Cc2c(Cl)cccc2Cl)nc2ccccc21 (stereo not drawn) [CD3226-D010]	11.1 ± 0.4	12.5 ± 0.3	10.8 ± 2.1	8.4 ± 2	–	–	–	–
COc1ccc(-n2c(CNC(=O)COc3ccc(Cl)cc3Cl)n[nH]c2=S)cc1 [JK0109-B011]	–	10.1 ± 1	–	–	–	–	–	–
O=C(COc1ccc(Cl)cc1)NCc1n[nH]c(=S)n1-c1ccc(Br)cc1 [JK0109-H005]	–	–	–	–	31.1 ± 1.26	31.1 ± 1.3	16.4 ± 4.1	–
O=c1sc2ccccc2n1Cc1n[nH]c(=S)n1-c1ccccc1 [JK0946-F007]	–	–	–	–	17.01 ± 0.15	17 ± 0.2	24.7 ± 3.2	10.8 ± 0.5

Read-outs that look alike come from different tables or passages of the source.
